Experimental findings from PMC4874542, “Nipah Virus C Protein Recruits Tsg101 to Promote the Efficient Release of Virus in an ESCRT-Dependent Pathway” (PLoS Pathogens, 2016) are described below.

This assay has as its target recombinant full-length NiV-C (6XHis-HA-NiV-C) (Nipah virus, UniProt Q997F1 1-166). Nature of the assay: co-IP.

B1: recombinant FLAG-EGFP-Tsg101-CTD (6XHis-tagged, EGFP A206K) (domain or fragment)
chain: EKMENQSENNDIDEVIIPTAPLYKQILNLYAEENAIEDTIFYLGEALRRGVIDLDVFLKHVRLLSRKQFQLRALMQKARKTAGLSDLY
notes: also called EGFP-Tsg101-CTD fusion; source: E. coli BL21(DE3), purified (HisTrap HP)
Take B1: the binding result is “binds”.
